Experiments:
AtlE [1] = target: T1, AtlE (Staphylococcus aureus, UniProt A0A0H3JT72); assay: SPR binding affinity to AtlE (steady state 1:1 model); conditions: for Kd: SPR, immobilised AtlE, 25 °C, PBS pH 7.4 with 1% or 5% DMSO
Method: SPR experiments were performed using a Biacore T100 (GE Healthcare) equipped with a Series S sensor chip CM5 (GE Healthcare). PBS buffer (67 mM Na2HPO4, 12.5 mM KH2PO4, 70 mM NaCl, 0,05% P20, pH 7.4) was used for immobilisation of the protein. AtlE was produced as previously described[1] and attached to the surface of the chip by amine coupling. The surface of flow cells 1 and 2 was initially activated with a 10-min pulse of a 1:1 mixture of 0.4 M 1-ethyl-3–(3-dimethylaminopropyl)-carbodiimide hydrochloride and 0.1 M N-hydroxysuccinimide, according to manufacturer recommendations. AtlE was diluted into 10 mM sodium acetate buffer, pH 5.8, to a final concentration of 100 µg/mL, and injected twice for 180 s over the second flow cell. Both flow cells were blocked with a 7-min pulse of 1.0 M ethanolamine. The final immobilisation level was about 4100 RU. Screening was run at 25 °C using PBS (67 mM Na2HPO4, 12.5 mM KH2PO4 pH 7.4, 70 mM NaCl, 0.05% P20) supplemented with 1% or 5% DMSO (Merck) as the running buffer. Selected compounds from the virtual screening studies were tested at two different concentrations: 40 and 400 µM. Each compound was injected for 1 min at a flow-rate of 30 µL/min, and the dissociation was monitored for 30 s. Regeneration was not needed, although 30 s of buffer-flow was used to stabilise the surface after each injection. […] Selected compounds were tested at eight different concentrations (depending on their solubility) in three parallel titrations. KD values were determined by fitting of the data to a 1:1 steady state binding model.

The chains behind the UniProt entries cited, without tags or fusion partners. Residues count along the entry.
UniProt A0A0H3JT72, 35-258 limits assumed: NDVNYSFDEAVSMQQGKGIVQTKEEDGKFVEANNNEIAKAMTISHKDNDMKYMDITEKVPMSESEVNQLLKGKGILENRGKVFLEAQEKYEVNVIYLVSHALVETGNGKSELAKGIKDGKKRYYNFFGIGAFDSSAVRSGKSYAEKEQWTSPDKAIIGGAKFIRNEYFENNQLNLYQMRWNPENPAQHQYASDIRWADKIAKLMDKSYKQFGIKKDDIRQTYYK

AtlE [2] = target: T1, AtlE; assay: STD NMR binding measurements; conditions: protein/ligand 1:100, protein 1 µM, ligand 0.1 mM, saturation time 2 s, qualitative
Method: The high-resolution NMR spectra were recorded on a Varian DirectDrive 800 MHz spectrometer at 25 °C. All data were collected using pulse sequences and phase-cycling routines provided in Varian libraries of pulse programs. The cryogenic triple-resonance NMR probe was used. NMR samples were prepared in a buffer containing 20 mM Tris-D11, 10% glycerol-D8, and 100 mM NaCl in D2O, pD 7.2. DSS (0.1 mM) was used as an internal standard. All the spectra were recorded at a protein/ligand ratio of 1:100, the protein concentration was 1 µM and the ligand concentration was 0.1 mM. The STD experiments[23] were performed with a 8802.8 Hz spectral width, 16384 data points, a saturation time of 2 s, a relaxation delay of 1.3 s, and 3800 scans. Selective saturation was achieved by a train of 50 ms long Gauss-shaped pulses separated by 1 ms delay. Water was suppressed via excitation sculpting. The on-resonance selective saturation of AtlE was applied at –0.9 ppm, which is well separated from the methyl group of compounds at 1.1 ppm. The off-resonance irradiation was applied at 30 ppm for the reference spectrum. Subtraction of the on and off-resonance spectra was performed internally via phase cycling. Spectra were zero-filled twice and apodised by an exponential line-broadening function of 1 Hz.
Additionally, we tested the binding nature of selected binders with STD NMR spectroscopy. […]

Row | Structure (SMILES) | Kd (AtlE [1]) | STD NMR binding to AtlE (STD signals in the aromatic region) (AtlE [2]) | times lower affinity than 10 (AtlE [1]; ratio of SPR Kd relative to compound 10)
1 | CCN1CCN(C(=O)c2ccccc2N2CCC(NC(=O)Nc3ccc(C)cc3)CC2)CC1 | > 1000 µM |  | 
2 | CCN(CC)C(=O)c1ccccc1N1CCC(NC(=O)Nc2ccccc2)CC1 | > 1000 µM |  | 
3 | CCCNC(=O)c1ccccc1N1CCC(NC(=O)Nc2ccc(C)cc2)CC1 | > 1000 µM |  | 
4 | CCN(Cc1ccccc1)C(=O)c1ccccc1N1CCC(NC(=O)Nc2ccc(C)cc2)CC1 | 38.8 µM |  | 
5 | Cc1ccc(NC(=O)NC2CCN(c3ccccc3C(=O)NCc3ccc(F)cc3)CC2)cc1 | 6.1 µM | bind to AtlE | 
6 | O=C(Nc1ccccc1)NC1CCN(c2ccccc2C(=O)NCCc2ccccc2)CC1 | 21.1 µM |  | 
7 | COc1ccc(CCNC(=O)c2ccccc2N2CCC(NC(=O)Nc3ccc(C)cc3)CC2)cc1 | > 1000 µM |  | 
8 | Cc1ccc(NC(=O)NC2CCN(c3ccccc3C(=O)N(C)C3CCN(C)CC3)CC2)cc1 | > 1000 µM |  | 
9 | Cc1ccc(NC(=O)NC2CCN(c3ccccc3C(=O)N3CCc4ccccc4C3)CC2)cc1 | 18.2 µM |  | 10
10 | Cc1ccc(NC(=O)NC2CCN(c3ccccc3C(=O)NCc3ccccc3)CC2)cc1 | 11.3 µM | bind to AtlE | 
11 | Cc1ccc(NC(=O)NC2CCN(c3ccccc3C(=O)NC3CCCc4ccccc43)CC2)cc1 (stereo not shown) | 11.7 µM |  | 
12 | CC(C)NC(=O)c1ccccc1N1CCC(NC(=O)Nc2ccccc2)CC1 | > 1000 µM |  | 
13 | CC1CCN(C(=O)c2ccccc2N2CCC(NC(=O)Nc3ccccc3)CC2)CC1 | > 1000 µM |  | 
